Test results reported in PubChem BioAssay AID588549 (Broad Institute, 2011).
The list shows a part of the results, in another mix than the full data. Some structures show a salt or complex split into parts, the way the source records it. The source made the active and inactive calls. Rule as the data show it: active = inhibition above about 8.5% (passing the limit was not always enough); inconclusive = no clear call, values can overlap the other calls.

Test system: Mycobacterium tuberculosis FadD28 fatty-acid-AMP ligase
Assay: inhibitors of FadD28 bisubstrate probe binding, primary screen, biochemical, fluorescence polarization, single point (AID 588549)
Conditions: at 12.5 µM, hits give high values

Row | Compound | inhibition
1 | COc1ccc(OP(C)(=O)Nc2cccc(Br)c2)cc1 (stereo not drawn) | inactive: -4.1%
2 | CN(C)CCOC(=O)C(O)(c1ccccc1)C1CCCCC1 (stereo not drawn) | inactive: 0.442%
3 | COc1ccc(NP(C)(=O)Oc2ccccc2OC)cc1 (stereo not drawn) | inactive: 0.626%
4 | Cc1c([N+](=O)[O-])cc([N+](=O)[O-])c(Br)c1[N+](=O)[O-] | inactive: 0.639%
5 | CCN(CC)CCCOC(=O)C(O)(c1ccccc1)C1CCCCC1 (stereo not drawn) | inactive: -3.42%
6 | CP(=O)(Nc1ccccc1)Oc1ccc(F)cc1 (stereo not drawn) | inactive: -0.0255%
7 | O=[N+]([O-])c1cc([N+](=O)[O-])c(OC2CCCCC2O)c([N+](=O)[O-])c1 (stereo not drawn) | inactive: 1.09%
8 | CCCCCOc1ccc(NP(C)(=O)Oc2ccc(Cl)cc2Cl)cc1 (stereo not drawn) | inactive: -5.07%
9 | CCOC(=O)c1ccc(NP(C)(=O)Oc2ccc(F)cc2)cc1 (stereo not drawn) | inactive: -2.34%
10 | COc1ccc(OP(C)(=O)Nc2ccc(SC(F)(F)F)cc2)cc1 (stereo not drawn) | inactive: -7.98%
11 | O=C(OC1CN2CCC1CC2)c1ccc([N+](=O)[O-])cc1 (stereo not drawn) | inactive: 0.413%
12 | O=C(OCCN1CCN(CCOCc2ccccc2)CC1)C(O)(c1ccccc1)c1ccccc1 | inactive: -0.458%
13 | COc1ccc2c(c1O)-c1c(O)c(OC)cc3c1[C@H](C2)[N+](C)(C)CC3.O=[N+]([O-])c1cc([N+](=O)[O-])c([O-])c([N+](=O)[O-])c1[O-] | inactive: -1.2%
14 | O=[N+]([O-])c1cc([N+](=O)[O-])c(Nc2ccc(Cl)cc2)c([N+](=O)[O-])c1 | inactive: -1.37%
15 | CP(=O)(Nc1ccccc1F)Oc1ccccc1 (stereo not drawn) | inactive: -0.115%
16 | CC(C)c1ccc(OP(C)(=O)Nc2ccc(SC(F)(F)F)cc2)cc1 (stereo not drawn) | inactive: -1.78%
17 | Cc1c(NP(C)(=O)Oc2ccc(C(C)C)cc2)c(=O)n(-c2ccccc2)n1C (stereo not drawn) | inactive: -3.33%
18 | O=[N+]([O-])c1cc([N+](=O)[O-])c(Nc2ccccn2)c([N+](=O)[O-])c1 | inactive: -3.98%
19 | COc1ccccc1OP(C)(=O)Nc1ccc(C)cc1C (stereo not drawn) | inactive: 0.45%
20 | CP(=O)(Nc1ccccn1)Oc1ccccc1 (stereo not drawn) | inactive: -0.724%
21 | CCc1ccc(OP(C)(=O)O)cc1 | inactive: -0.19%
22 | COc1ccccc1OP(C)(=O)Nc1ccc(Br)cc1 (stereo not drawn) | inactive: 0.75%

Row | Compound | inhibition
23 | COc1ccc(OP(C)(=O)Nc2ccccn2)cc1 (stereo not drawn) | inactive: -0.194%
24 | CN(C)CCOC(=O)C(O)(c1ccccc1)C1CCCC1 (stereo not drawn) | inactive: -5.05%
25 | CP(=O)(Nc1ccc(Cl)cc1Cl)Oc1ccccc1 (stereo not drawn) | inactive: -1.18%
26 | CCCCCCCCCCCCCCCC1C[N+](C)(C)CCOP(C)(=O)O1 (stereo not drawn) | inactive: -8.25%
27 | CP(=O)(OCCOc1ccccc1)OCCOc1ccccc1 | inactive: -0.501%
28 | Cc1cc(C)cc(OP(C)(=O)Nc2cccc(C(F)(F)F)c2)c1 (stereo not drawn) | inactive: -5.6%
29 | O=C1C(O)=C([N+](=O)[O-])C(=O)C(O)=C1[N+](=O)[O-] | inactive: -2.37%
30 | COc1ccccc1OP(C)(=O)Nc1ccc(C)c(C)c1 (stereo not drawn) | inactive: -0.256%
31 | COc1ccc(OP(C)(=O)Nc2ccccc2Br)cc1 (stereo not drawn) | inactive: -3.01%
32 | CCOC(=O)c1ccc(NP(C)(=O)Oc2ccc(Cl)cc2)cc1 (stereo not drawn) | inactive: -3.92%
33 | CP(=O)(OC12CC3CC(CC(C3)C1)C2)OC12CC3CC(CC(C3)C1)C2 | inactive: -2.9%
34 | COc1ccccc1OP(C)(=O)Nc1ccccc1Br (stereo not drawn) | inactive: 0.062%
35 | CC(C)(C)c1ccc(OP(C)(=O)O)cc1 | inactive: -0.027%
36 | CP(=O)(Nc1ccc(Cl)cc1)Oc1ccc(F)cc1 (stereo not drawn) | inactive: -1.27%
37 | CN(C)C(=O)c1c([N+](=O)[O-])cc([N+](=O)[O-])cc1[N+](=O)[O-] | inactive: -0.255%
38 | COc1ccc(OP(C)(=O)Nc2ccc(Br)cc2)cc1 (stereo not drawn) | inactive: -1.28%
39 | CCN(CC)CC(O)COC(=O)C(O)(c1ccccc1)C1CCCCC1 (stereo not drawn) | inactive: -1.01%
40 | O=C(OCCCN1CCCC1)C(O)(c1ccccc1)C1CCCCC1 (stereo not drawn) | inactive: -0.776%
41 | COc1ccccc1OP(C)(=O)Nc1c(C)n(C)n(-c2ccccc2)c1=O (stereo not drawn) | inactive: -1.92%
42 | CCc1ccc(OP(C)(=O)Nc2cccnc2)cc1 (stereo not drawn) | inactive: 0.346%
43 | CP(=O)(Oc1ccccc1)N1CCOC1=O (stereo not drawn) | inactive: -3.56%
